Data as given in PubChem BioAssay AID624099 (ICCB-Longwood, 2012)

Purpose: 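Human genes that papillomavirus E2 requires to repress the HPV18 LCR promoter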 (primary screen)
Cells: human C33A cervical carcinoma cells (HPV-negative) stably expressing BPV1 E2 and an HPV18 LCR luciferase reporter
Reagent: siRNA pool against human genes, 40 nM
Time to read-out: 72 h
Measurement: 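Per-well luciferase luminescence, z-scored on each plate against the plate mean and SD with control wells left out, then averaged across three replicate plates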
Scale: mean z-score and z-score: higher = stronger reporter signal, weaker E2 silencing
Hit rule: 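Mean z ≥ 2 together with z ≥ 2 in two or more of the three replicates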
In all, the deposit lists about 21,000 reagents; shown is an unselected part. 497 of them (2.4%) were called active. 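Higher z means weaker E2 silencing; only reporter increases were scored, and knock-downs that hurt cell survival may mask genuine repressor factors.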

no.	Target gene	mean z-score	z-score, replicate A	z-score, replicate B	z-score, replicate C	outcome
1	QSER1 (glutamine and serine rich 1)	-0.12	-0.01	-0.22	-0.15	inactive
2	C19orf25 (chromosome 19 open reading frame 25)	0.7	0.34	1.08	0.68	inactive
3	ORM2 (orosomucoid 2)	-0.76	-0.8	-0.75	-0.73	inactive
4	NECTIN4 (nectin cell adhesion molecule 4)	0.76	0.62	0.96	0.69	inactive
5	OR2A1 (olfactory receptor family 2 subfamily A member 1)	-0.86	-1.04	-0.72	-0.81	inactive
6	ATE1 (arginyltransferase 1)	1.17	1.42	0.78	1.3	inactive
7	SNX5 (sorting nexin 5)	-0.08	0	-0.19	-0.04	inactive
8	EMC7 (ER membrane protein complex subunit 7)	1.96	2.02	1.54	2.32	inactive
9	LOC387765 (retired record)	-1.15	-1.23	-1.16	-1.05	inactive
10	PRDM6 (PR/SET domain 6)	-1.09	-0.68	-1.53	-1.05	inactive
11	CCDC42 (coiled-coil domain containing 42)	-0.82	-0.69	-0.68	-1.09	inactive
12	BDKRB1 (bradykinin receptor B1)	-0.67	-0.7	-0.79	-0.51	inactive
13	LOC389666 (retired record)	-0.07	0.2	-0.14	-0.27	inactive

4 entries from above, reformatted:
{"Target gene":"SNX5 (sorting nexin 5)","mean z-score":-0.08,"z-score, replicate A":0,"z-score, replicate B":-0.19,"z-score, replicate C":-0.04,"outcome":"inactive"}
{"Target gene":"EMC7 (ER membrane protein complex subunit 7)","mean z-score":1.96,"z-score, replicate A":2.02,"z-score, replicate B":1.54,"z-score, replicate C":2.32,"outcome":"inactive"}
{"Target gene":"LOC387765 (retired record)","mean z-score":-1.15,"z-score, replicate A":-1.23,"z-score, replicate B":-1.16,"z-score, replicate C":-1.05,"outcome":"inactive"}
{"Target gene":"PRDM6 (PR/SET domain 6)","mean z-score":-1.09,"z-score, replicate A":-0.68,"z-score, replicate B":-1.53,"z-score, replicate C":-1.05,"outcome":"inactive"}

Next records:
no.	Target gene	mean z-score	z-score, replicate A	z-score, replicate B	z-score, replicate C	outcome
14	NAT2 (N-acetyltransferase 2)	-0.29	-0.23	-0.62	-0.03	inactive
15	RAB4B (RAB4B, member RAS oncogene family)	-1.54	-1.74	-1.7	-1.17	inactive
16	SLC16A4	-0.93	-0.9	-0.78	-1.1	inactive
17	CCT8 (chaperonin containing TCP1 subunit 8)	-1.03	-0.53	-1.11	-1.45	inactive
18	PPIC (peptidylprolyl isomerase C)	-1	-0.91	-1.12	-0.98	inactive
19	MPPED1 (metallophosphoesterase domain containing 1)	-0.84	-0.53	-1.09	-0.9	inactive
20	ANKRD26P1 (ankyrin repeat domain 26 pseudogene 1)	-0.82	-0.53	-0.99	-0.94	inactive
21	PPP1R16B (protein phosphatase 1 regulatory subunit 16B)	0.77	0.86	0.9	0.56	inactive
22	LAMTOR3 (late endosomal/lysosomal adaptor, MAPK and MTOR activator 3)	-0.7	-0.83	-0.45	-0.84	inactive
23	PTRHD1 (peptidyl-tRNA hydrolase domain containing 1)	-0.13	-0.42	0.03	0	inactive
24	BCLAF1 (BCL2 associated transcription factor 1)	-0.27	-0.26	-0.33	-0.23	inactive
25	MRPL57 (mitochondrial ribosomal protein L57)	-0.24	-0.29	-0.11	-0.31	inactive
26	DIS3L2 (DIS3 like 3'-5' exoribonuclease 2)	-0.4	-0.45	-0.39	-0.36	inactive
27	FMR1NB (FMR1 neighbor)	-0.17	-0.04	-0.19	-0.28	inactive
28	LOC440265 (retired record)	-0.46	-0.31	-0.25	-0.83	inactive
29	FFAR2 (free fatty acid receptor 2)	1.01	1.3	0.81	0.93	inactive
30	FLII (FLII actin remodeling protein)	0.46	0.54	0.32	0.51	inactive
31	MAP6 (microtubule associated protein 6)	-1.09	-1.29	-1.13	-0.84	inactive
32	MOGS (mannosyl-oligosaccharide glucosidase)	0.85	0.84	0.8	0.9	inactive
33	RRAGD (Ras related GTP binding D)	0.66	0.57	0.51	0.91	inactive
34	LOC388589 (retired record)	0.16	0.26	0.23	-0.02	inactive
35	ZNF696 (zinc finger protein 696)	-2.24	-2.08	-2.46	-2.17	inactive
36	GPR141 (G protein-coupled receptor 141)	0.64	0.78	0.75	0.39	inactive
37	CMTM6 (CKLF like MARVEL transmembrane domain containing 6)	-0.37	-0.79	-0.13	-0.19	inactive
38	EIF4A1 (eukaryotic translation initiation factor 4A1)	-1.02	-0.66	-1.21	-1.2	inactive
39	LOC388069 (retired record)	0.21	0.35	0.11	0.17	inactive
